A mixed list of measured activities; the numbers were collected in NIAID ChemDB.

All rows: whole-cell or culture tests; agent: Mycobacterium tuberculosis

A number after MIC or MFC names an inhibition level or a share of isolates.

smiles | strain | mutations | read by | measure | tested at | value
COc1cc2cc(c1Cl)N(C)C(=O)CC(OC(=O)C(C)C)[C@]1(C)O[C@@H]1[C@@H](C)[C@H]1C[C@](O)(NC(=O)O1)[C@@H](OC)/C=C/C=C(\C)C2 | H37Rv |  | BACTEC | inhibition | 12.5 µg/mL | 9%
CCS/C(N)=N/N=C/c1nc2ccccc2o1 | CNCTC TBC1/47 |  |  | MIC |  | 32 µM
Cc1nc2ccccc2c2nc3ccccc3n12 | H37Rv |  | resazurin | MIC99 |  | 1.56 µg/mL
CCCCC(=O)Nc1sc(Cc2ccc(OCc3c(Cl)cccc3Cl)cc2)cc1C(=O)O | H37Rv |  | resazurin | MIC90 |  | 7.7 µM
CC(C)COC(=O)c1cccnc1-c1ncccc1C(=O)OCC(C)C | H37Rv |  | resazurin | MIC |  | >6.25 µg/mL
CC[C@@H](CO)NCCN[C@@H](CC)CO | H37Rv |  | luminescence | MIC |  | 0.3 µg/mL
CC(=O)C1(N=Nc2ccc(S(N)(=O)=O)cc2)CCOC1=O | H37Rv |  | BACTEC | inhibition | 12.5 µg/mL | 10%
CCNCC1CCN(c2c(F)cc3c(=O)c(C(=O)O)cn(CC)c3c2F)C1 | 64 strains |  |  | MIC90 |  | 2 µg/mL
C[C@H]1NCc2cc(-c3ccc4c(=O)c(C(=O)O)cn(C5CC5)c4c3OC(F)F)ccc21 | 67 clinical isolates |  |  | MIC90 |  | 4 µg/mL
CC(C)[C@H]1CO[C@]23CC[C@H](NCc4cc(C(F)(F)F)nc5cc(F)c(F)cc45)C[C@H]2CCC(=O)N13 |  |  | resazurin | MIC |  | <0.5 µM
NC[C@H]1O[C@H](O[C@H]2[C@H](O)[C@@H](O[C@H]3O[C@H](CO)[C@@H](O)[C@H](N)[C@H]3O)[C@H](N)C[C@@H]2N)[C@H](O)[C@@H](O)[C@@H]1O | RM22 |  |  | MIC |  | 96 µg/mL
COC(=O)c1c(-c2ccc([N+](=O)[O-])o2)noc1N |  |  |  | MIC |  | 10 µg/mL
COC(=O)c1cccnc1-c1ncccc1C(=O)OC | H37Rv |  | resazurin | MIC |  | >6.25 µg/mL
CC(C)[C@H]1CO[C@]23CC[C@H](N(Cc4ccc(C(F)(F)F)cc4)CC4CNC4)C[C@H]2CCC(=O)N13.O=CO |  |  | resazurin | MIC |  | 0.5–5 µM
O=[N+]([O-])c1ccc(-c2nocc2-c2ccccc2)o1 |  |  |  | MIC |  | 3 µg/mL
CC(C)[C@H]1CO[C@]23CC[C@H](OC(c4ccc(C(F)(F)F)cc4)c4ccc(C(F)(F)F)cc4)C[C@H]2CCC(=O)N13 |  |  | resazurin | MIC |  | <0.5 µM
O=C(NN1C(=O)CSC1=S)c1ccc([N+](=O)[O-])cc1 | H37Rv |  | BACTEC | inhibition | 12.5 µg/mL | 0%
N/C(COc1cccc(Cl)c1)=N/NC(=O)c1ccncc1 | ATCC 35820 (streptomycin-resistant) |  |  | MIC |  | 3.12 µg/mL
CCOc1ccc(-c2cc(-c3cc4cc(F)ccc4nc3Cl)nc(N)c2C#N)cc1 | H37Rv |  | broth dilution | inhibition | 6.25 µg/mL | 24%
CCn1cc(C(=O)O)c(=O)c2cc(F)c(-n3cccc3)cc21 | 64 strains |  |  | MIC50 |  | 8 µg/mL
O=C(NNCc1ccccc1F)c1ccncc1 | Isoniazid-resistant |  |  | MBC |  | >6.25 µg/mL
CCS/C(N)=N/N=C/c1nc2ccccc2n1C | CNCTC TBC1/47 |  |  | MIC |  | 32 µM
O=C1C=CC2OC(c3ccccc3)C(O)C2O1 | H37Rv |  | BACTEC | MIC bound |  | >12.5 µg/mL
O=C(/C=C/c1cc2cc(F)ccc2nc1Cl)c1ccc(F)cc1 | H37Rv |  | broth dilution | inhibition | 6.25 µM | 7%
O=C(O)c1cn(-c2ccc(F)cc2)c2cc(N3CCNCC3)c(F)cc2c1=O | 64 strains |  |  | MIC90 |  | 8 µg/mL
COc1ccccc1C(=O)Nc1sc(Cc2ccc(OCc3c(Cl)cccc3Cl)cc2)cc1C(=O)O | H37Rv |  | resazurin | MIC90 |  | 15.8 µM
CC1(C)CC[C@]2(C(=O)O)CC[C@]3(C)C(=CC[C@@H]4[C@@]5(C)C[C@H](O)[C@H](O)[C@@](C)(C(=O)O)[C@@H]5CC[C@]43C)[C@@H]2C1 | H37Rv |  | BACTEC | MIC |  | ≥12.5 µg/mL
O=[N+]([O-])c1ccc(C2=NOC(c3ccccc3)(N3CCCCC3)C2)o1 |  |  |  | MIC |  | 10 µg/mL
Cc1ccc(Nc2ccc(O)c3c2C(=O)c2c(O)ccc(Nc4ccc(C)cc4)c2C3=O)cc1 | H37Rv |  | BACTEC | inhibition | 12.5 µg/mL | -8%
CCc1nc2ccccc2n1CCCCNc1ccc(-c2ccccn2)cc1 | H37Rv |  | turbidity / fluorescence | MIC99 |  | 0.8 µM
O=C(/C=C/c1cc2cc(Br)ccc2nc1Cl)c1ccc(F)cc1 | H37Rv |  | broth dilution | inhibition | 6.25 µg/mL | 99%
CN(C)CC1=Nc2cccc3cccc(c23)N1 | H37Rv |  | BACTEC | inhibition | 12.5 µg/mL | 41%
CC1COc2c(N3CCN(C)CC3)c(F)cc3c(=O)c(C(=O)O)cn1c23 | H37Rv |  |  | MIC |  | 1 µg/mL
CN(C)C1=c2c(=O)n(C)c(=O)n(C)c2=NC2C=CC=CN12 | H37Rv |  | BACTEC | MIC bound |  | >12.5 µg/mL
CC(C)[C@H]1CO[C@]23CC[C@H](N(Cc4ccc(C(F)(F)F)cc4)C4CC4)C[C@H]2CCC(=O)N13 |  |  | resazurin | MIC |  | <0.5 µM
CCCC(=O)Nc1sc(Cc2ccc(OCc3c(Cl)cccc3Cl)cc2)cc1C(=O)O | H37Rv |  | resazurin | MIC90 |  | 61.1 µM
C/C(=N\NC(=O)c1ccncc1)c1cccc(C(F)(F)F)c1 | H37Rv |  |  | MIC |  | 0.1 µg/mL
COC(=O)c1ccc(NCC2=C(Br)C(=O)C=CC2=O)cc1Cl | H37Rv |  | BACTEC | MIC bound |  | >12.5 µg/mL
CCCC(C)S/C(N)=N/N=C/c1ccc2ccccc2n1 | CNCTC TBC1/47 |  |  | MIC |  | 16 µM
O=C(N/N=C/c1cccc(C(F)(F)F)c1)c1ccncc1 | Isoniazid-resistant |  |  | MBC |  | >3.2 µg/mL
CCCCCCS/C(N)=N/N=C/c1ccc2ccccc2n1 | CNCTC TBC1/47 |  |  | MIC |  | 8 µM
COc1ccc2ccc3ccc(OC)nc3c2n1 | H37Rv |  | BACTEC | MIC bound |  | >12.5 µg/mL
O=[N+]([O-])c1ccc(C2=NOC3(N4CCCCC4)CCCCC23)o1 |  |  |  | MIC |  | 0.01 µg/mL
NC(=O)c1ccc([N+](=O)[O-])o1 | H37Rv |  | resazurin | MIC bound |  | >6.25 µg/mL
CCN(CC)C1CC(c2ccc([N+](=O)[O-])o2)=NO1 |  |  |  | MIC |  | 0.1 µg/mL
Nc1nc(-c2ccc(Br)cc2)cc(-c2cc3cc(F)ccc3nc2Cl)n1 | H37Rv |  | broth dilution | inhibition | 6.25 µg/mL | 3%
CCCCc1nc2ccccc2c2nc3ccccc3n12 | H37Rv |  | resazurin | MIC99 |  | >25 µg/mL
CC(=O)Nc1ccc(/C=N/NC(N)=S)cc1 | RM22 |  |  | MIC |  | ≤0.156 µg/mL
c1ccc2c(c1)ncn1c3ccccc3nc21 | H37Rv | INH resistant | resazurin | MIC99 |  | 3.125 µg/mL
Cc1noc(-c2ccc([N+](=O)[O-])o2)n1 | H37Rv |  | BACTEC | MIC |  | 12.5 µg/mL
N#Cc1c(-c2cccs2)cc(-c2cc3cc(F)ccc3nc2Cl)nc1N | H37Rv |  | broth dilution | inhibition | 6.25 µg/mL | 21%
CCCCc1nc2ccccc2c2nc3cc4ccccc4cc3n12 | H37Rv |  | resazurin | MIC99 |  | 1.56 µg/mL
O=C(NNCc1ccc(Cl)c(Cl)c1)c1ccncc1 | H37Rv |  |  | MIC |  | 1.6 µg/mL
NC1CCN(c2c(F)cc3c(=O)c(C(=O)O)cn(C4CC4)c3c2Cl)C1 | 60 strains |  |  | MIC90 |  | 0.5 µg/mL
Nc1ccc(C(=O)O)c(O)c1 | RM22 |  |  | MIC |  | 4 µg/mL
Cc1nc2ccc(Br)cc2c2nc3ccccc3n12 | H37Rv |  | resazurin | MIC99 |  | 12.5 µg/mL
CCS/C(N)=N/N=C/c1ccc2ccccc2n1 | CNCTC TBC1/47 |  |  | MIC |  | 32 µM
CO[C@H]1/C=C/O[C@@]2(C)Oc3c(C)c(O)c4c(O)c(c(/C=N/N5CCN(C)CC5)c(O)c4c3C2=O)NC(=O)/C(C)=C\C=C\[C@H](C)[C@H](O)[C@@H](C)[C@@H](O)[C@@H](C)[C@H](OC(C)=O)[C@@H]1C | H37Rv |  | resazurin | MIC90 |  | 0.08 µM
O=C(/C=C/c1cc2cc(F)ccc2nc1Cl)c1cccc([N+](=O)[O-])c1 | H37Rv |  | broth dilution | inhibition | 6.25 µM | 9%
Cc1ccc2oc(=O)c(/C=C(\O)c3ccccc3Cl)nc2c1 | H37Rv |  |  | MIC |  | 100 µg/mL
Nc1nc(-c2ccc(Cl)c(Cl)c2)cc(-c2cc3cc(F)ccc3nc2Cl)n1 | H37Rv |  | broth dilution | inhibition | 6.25 µg/mL | 12%
O=C(NC(=S)NCc1ccco1)c1csc([N+](=O)[O-])c1 |  |  | resazurin | MIC |  | 40 µg/mL
CCCCCCCS/C(N)=N/N=C/c1ccc2ccccc2n1 | CNCTC TBC1/47 |  |  | MIC |  | 8 µM
CC(C)Sc1nc2c(=O)[nH][nH]c(=O)c2n1Cc1ccccc1 | H37Rv |  | BACTEC | inhibition | 12.5 µg/mL | 0%
CCc1cc(C(N)=S)ccn1 | RM22 |  |  | MIC |  | 5 µg/mL
Cc1ccc(OC/C(N)=N\NC(=O)c2ccncc2)cc1 | ATCC 35828 (pyrazinamide-resistant) |  |  | MIC |  | 3.12 µg/mL
COc1cccc2c1C(=O)c1c(O)c3c(c(O)c1C2=O)C[C@@](O)(/C(C)=N/NC(N)=O)CC3OC1CC(N)C(O)C(C)O1.Cl | KM-R |  |  | MIC |  | 12.5 µg/mL
CO[C@H]1/C=C/O[C@@]2(C)Oc3c(C)c(O)c4c(O)c(c(/C=N/N5CCN(C)CC5)c(O)c4c3C2=O)NC(=O)/C(C)=C\C=C\[C@H](C)[C@H](O)[C@@H](C)[C@@H](O)[C@@H](C)[C@H](OC(C)=O)[C@@H]1C | H37Rv | INH resistant | resazurin | MIC99 |  | 0.24 µg/mL
COc1ccc(/C=C2\Oc3c(OC)c(OC)cc(OC)c3C2=O)cc1 | H37Rv |  | BACTEC | inhibition | 12.5 µg/mL | 24%
O[C@H](c1cc(C(F)(F)F)nc2c(C(F)(F)F)cccc12)[C@@H]1CCCCN1 | H37Rv |  | resazurin | MIC |  | 20 µM
CO[C@H]1/C=C/O[C@@]2(C)Oc3c(C)c(O)c4c(O)c(c(/C=N/N5CCN(C)CC5)c(O)c4c3C2=O)NC(=O)/C(C)=C\C=C\[C@H](C)[C@H](O)[C@@H](C)[C@@H](O)[C@@H](C)[C@H](OC(C)=O)[C@@H]1C | RM22 |  |  | MIC |  | >64 µg/mL
O=C(O)c1ccccc1O | 7800 |  |  | EC50 |  | >200 µM
NC(C/C=C/C(N)(CF)C(=O)O)C(=O)O |  |  |  | MIC |  | >100 µg/mL
CC(C)=C/C(C)=N\NC(N)=O | H37Rv |  | resazurin | MIC bound |  | >6.25 µg/mL
CC(=O)O[C@H]1C[C@@]2(C)[C@@H](C[C@@H](O)[C@H]3[C@@]4(C)CC[C@@H](O)[C@@H](C)[C@@H]4CC[C@@]32C)/C1=C(\CCC=C(C)C)C(=O)O |  |  | agar diffusion / agar | EC50 |  | 0.8 µg/mL
O=C(O)c1cccnc1-c1ncccc1C(=O)O | H37Rv |  | resazurin | MIC |  | >6.25 µg/mL
ClCc1ccc2ccc3ccc(CCl)nc3c2n1 | H37Rv |  | BACTEC | MIC bound |  | >12.5 µg/mL
COc1cc(NC(C)CCCN)c2ncccc2c1 | H37Ra |  | resazurin | MIC |  | 1372 µM
CCn1cc(C(=O)O)c(=O)c2cc(F)c(N3CCNCC3)nc21 | 64 strains |  |  | MIC90 |  | 4 µg/mL
Nc1ccc(C(=O)/C=C/c2cc3cc(Br)ccc3nc2Cl)cc1 | H37Rv |  | broth dilution | inhibition | 6.25 µg/mL | 13%
Cc1ccc(S(=O)(=O)[O-])cc1.Cc1ccc(S(=O)(=O)[O-])cc1.Cn1c(COc2ccc(/C=N/NC(=O)CCC(=O)N/N=C/c3ccc(OCc4c[n+]5ccccc5n4C)cc3)cc2)c[n+]2ccccc12 | H37Rv |  | BACTEC | inhibition | 12.5 µg/mL | 32%
O=C(/C=C/c1cc2cc(F)ccc2nc1Cl)c1cccs1 | H37Rv |  | broth dilution | inhibition | 6.25 µM | 21%
Nc1nc2c(ncn2[C@H]2C=C[C@@H](CO)C2)c(=O)[nH]1 | H37Rv |  | BACTEC | inhibition | 12.5 µg/mL | 7%
CC(C)[C@H]1CO[C@]23CC[C@H](N(Cc4ccc(C(F)(F)F)cc4)C4CCC4)C[C@H]2CCC(=O)N13 |  |  | resazurin | MIC |  | <0.5 µM
CN1CC2=C(NC(=S)NC2c2ccccc2Cl)/C(=C\c2ccccc2Cl)C1.Cl | H37Rv |  | BACTEC | inhibition | 12.5 µg/mL | 21%
CN1C[C@H](c2ccccc2)[C@]2(CC3C=CC=CC3C2=O)[C@]12C(=O)c1cccc3cccc2c13 | H37Rv |  | broth dilution / resazurin | EC50 |  | >100 µM

Repeating the first 5 entries:

smiles,strain,mutations,read by,measure,tested at,value
COc1cc2cc(c1Cl)N(C)C(=O)CC(OC(=O)C(C)C)[C@]1(C)O[C@@H]1[C@@H](C)[C@H]1C[C@](O)(NC(=O)O1)[C@@H](OC)/C=C/C=C(\C)C2,H37Rv,,BACTEC,inhibition,12.5 µg/mL,9%
CCS/C(N)=N/N=C/c1nc2ccccc2o1,CNCTC TBC1/47,,,MIC,,32 µM
Cc1nc2ccccc2c2nc3ccccc3n12,H37Rv,,resazurin,MIC99,,1.56 µg/mL
CCCCC(=O)Nc1sc(Cc2ccc(OCc3c(Cl)cccc3Cl)cc2)cc1C(=O)O,H37Rv,,resazurin,MIC90,,7.7 µM
CC(C)COC(=O)c1cccnc1-c1ncccc1C(=O)OCC(C)C,H37Rv,,resazurin,MIC,,>6.25 µg/mL

An empty or dashed field is not shown. Two numbers with a dash give a range or band. MIC bound comes from a single tested concentration. ECn: concentration that inhibits the pathogen or its effect by n%. Inhibition is in % at the dose shown (toxicity tests: loss of growth or viability). Neighbouring rows are from separate reports.